# Test results taken from PMC9785441, “A Broad Spectrum Antiparasitic Activity of Organotin (IV) Derivatives and Its Untargeted Proteomic Profiling Using Leishmania donovani” (Pathogens, 2022).
# Columns and labels:
# [1] = test system: L. donovani intracellular amastigotes; assay: L. donovani intracellular amastigote assay in B10R cells (high content imaging); format: cell-based, Leishmania donovani; details: ratio between CC50 in B10R cells and EC50 against L. donovani intracellular amastigotes
# Method: For the intracellular amastigote stage assay, L. donovani was incubated at a density of 1 × 10^6 parasites/mL for six days at 29 °C before infection to enrich the proportion of metacyclic promastigotes. B10R monocyte cell lines were cultured in RPMI supplemented with 10% FBS and 1%penicillin/streptomycin at 37 °C in 5% CO2. After 72 h, cells were counted with a hemocytometer and mixed with the six-day-old parasites. Into 384-well assay plates, that had been pre-spotted with compounds diluted 1000-fold in DMSO, with final assay concentrations ranging from 20 µM to 0.02 µM and tested in biological triplicates., 500 B10R cells and 7000 parasites were dispensed per well in a final volume of 50 µL using a Multidrop Combi liquid dispenser (ThermoScientific, Waltham, MA, USA). Plates were incubated at 37 °C and 5% CO2 for 72 h. Cultures were then fixed with 4% formaldehyde solution for 30 min and stained with 0.5 µg/mL DAPI (diamidino-2-phenylindole). Plates were then imaged using an ImageXpress Micro XLS automated high content imager (Molecular Devices, San Jose, CA, USA) using a 10× air objective. A custom image analysis module generated in ImageXpress was used to count the nuclei of host and parasite cells. EC50 values were obtained using the GraphPad Prism 9 Software with biological triplicates.
# [2] = test system: T. cruzi (infecting C2C12); assay: T. cruzi intracellular amastigote assay in C2C12 cells (high content imaging); format: cell-based, Trypanosoma cruzi; details: ratio between CC50 in C2C12 cell lines and EC50 against T. cruzi intracellular amastigotes
# Method: Mouse C2C12 myoblasts (ATCC CRL-1772) were cultivated in RPMI 1640 medium supplemented with 5% FBS and kept at 37 °C and 5% CO2. T. cruzi CAI-72 trypomastigotes were obtained from the supernatant of C2C12 cells infected four to seven days previously. For the assay, 500 C2C12 cells were mixed with 7500 T. cruzi parasites and seeded into 384-well plates at a 50 µL final volume. Test compounds and reference drugs (Benznidazole and K11777) were pre-spotted into the 384 well black bottom plates prior to the addition of cells and parasites with final assay concentration of 20 µM to 0.02 µM. The plates were incubated at 37 °C^, 5% CO2 for 72 h. Cultures were then fixed with 4% formaldehyde and 0.5 µg/mL DAPI (diamidino-2-phenylindole) was added for staining nucleic acids. Plates were kept protected from light for 1 h and then imaged in an ImageXpress Micro XLS automated high content imager (Molecular Devices, San Jose, CA, USA). Imaging and data analysis were performed as described for L. donovani amastigotes on biological triplicates.
SMILES,SI^a [1],SI^b [2]
"COc1ccc(NC(=O)CCC(=O)O)cc1 [MS26, 4-(4-methoxyphenylamino)-4 oxobutanoic acid]",2.02,6.23
"COc1ccc(NC(=O)CCC(=O)[O-])cc1.[Na+] [MS26Na, sodium 4-(4-methoxyphenylamino)-4 oxobutanoate]",1.06,0.38
